Laboratory results as given in patent US12122799B2, “Antibiotics for veterinary staphylococcal infections” (THE GEORGE WASHINGTON UNIVERSITY, A CONGRESSIONALLY …, priority 2018, dated 2024).

System: recombinant DXR enzyme
Assay: DXR enzyme activity assay
Assay type: biochemical

CC(=O)N(O)CCCP(=O)(O)O
IC50 (read-out: S. chromogenes IC50 (mean ± SD), n=3, tested form: monosodium salt): 360 nM
IC50 (read-out: S. schleiferi IC50 (mean ± SD), n=3, tested form: monosodium salt): 1000 nM

Where two headings read alike, the source gives them in different places.
